Kd data for three substances are collected here from patent US20220135655A1.

In the assay the target is H5VN04 (influenza A virus H5VN04 (H5N1)). As to the kind of experiment: SPR. Conditions: scFv.
Turning to CR6261 F54A, the Kd (commonly the equilibrium constant for the complex coming apart) worked out at 290 nM.
The figure for CR6261 Y98A is 1600 nM; for F10 Y98A it is 350 nM.
